Measured values from several laboratories, pooled; numbers as filed in NIAID ChemDB.

All rows: cytotoxicity tests; endpoint: CC50

CCn: concentration that lowers growth or viability of the cells by n%. An empty or dashed field is not shown. a–b is a range or a potency band. Conditions beyond the fields shown may differ between rows.

SMILES | cell line | read by | result
Nc1c(-c2nccc(=O)[nH]2)ncn1[C@@H]1O[C@H](CO)[C@@H](O)[C@H]1O | U-937 |  | >1500 µM
O=C(CSc1ncccc1C(=O)O)c1ccc(O)c(O)c1 | HOS |  | 59 µM
Fc1cc(F)c2nc(-c3ccc(-n4cncn4)cc3)n(Cc3cccc(C(F)(F)F)c3)c2c1 | Vero-C-1008 | neutral red / absorbance | >50 µg/mL
O=Cc1coc2ccc(Br)cc2c1=O | HTLV-I-bearing MT-4 | MTT | 28.1 µg/mL
CCOC(=O)c1c(CS(=O)(=O)c2ccccc2)n(C)c2ccc(CN3CCN(C)CC3)cc12 | Huh7.5 | resazurin | >50 µM
CCCN(Cc1ccc(OCC(=O)OCC)cc1)C(=O)c1ccc(-c2ccc3c(c2)OCO3)cc1 | BJ |  | >20 µM
CCOC(=O)c1c(CS(=O)(=O)c2ccccc2)n(C)c2ccc(CN3CCCC3)cc12 | Huh7.5 | resazurin | >50 µM
COc1ccc(N(C)C(=O)[C@H](Cc2ccccc2)NC(=O)NS(=O)(=O)N[C@H](Cc2ccccc2)C(=O)N(C)c2ccc(OC)cc2)cc1 | MT-2 | XTT | 33.3 µM
Cc1cn(CC(=O)N[C@@H](Cc2ccccc2)C(=O)N(C)c2cccc(F)c2)c(=O)[nH]c1=O | TZM-gfp | XTT | >50 µM
Clc1ccc(Nc2nnc(NCCc3ccccc3)nn2)cc1 | Mammalian cells |  | 29 µM
Nc1ncc2ncn(CCCO)c2n1 | U-937 |  | >100 µM
Cc1cc(N2CCOCC2)ccc1Nc1ncnc2ccc(-c3cccs3)cc12 | HUH 9B |  | 10–25 µM
CC1(C)C2CC=C3C(CC[C@@]4(C)C5C[C@](C)(C(=O)O)CC[C@]5(C)CC[C@]34C)[C@@]2(C)CCC1(O)O | A2058 |  | 16.4 µM
Nc1nc(Cl)c2ncn(CCO)c2n1 | PBL |  | >100 µM
O=C1C[C@H](Cc2ccco2)N1C(=O)NCc1ccc([N+](=O)[O-])cc1 | COS-7 | MTT | >261 µM
Nc1ccn(C[C@H]2COP(=O)(O)CO2)c(=O)n1 | CBMC |  | 65.67 µg/mL
Cn1nnc(C[C@H]2CC(=O)N2C(=O)NCc2ccc(C(F)(F)F)cc2)n1 | COS-7 | MTT | >195 µM
Nc1ccn([C@@H]2O[C@H](CO)C3OC32)c(=O)n1 | TM11 |  | 5 µM
COC(=O)C1=CO[C@@H]2OC[C@]3(O)C=C[C@H]1[C@H]23 | L6 rat skeletal myoblasts | resazurin | 57.8 µg/mL
CN(C(=O)[C@H](Cc1cc(F)cc(F)c1)NC(=O)NS(=O)(=O)N[C@@H](Cc1cc(F)cc(F)c1)C(=O)N(C)c1ccc2c(c1)ncn2C)c1ccc2c(c1)ncn2C | MT-2 | XTT | 100 µM
Cc1cc(Nc2ncnc3ccc(-c4cccs4)cc23)ccc1N1CCOCC1 | HUH 9B |  | >25 µM
CCCCN1C(c2sc(C)nc2C)=NNC1SCc1ccc(C(F)(F)F)cc1 | 143B | MTT | >100 µM
O=Cc1coc2ccc(Cl)cc2c1=O | HTLV-I-bearing MT-4 | MTT | 17.9 µg/mL
CCCc1cc(=O)oc2c3c(c4c(c12)OC(C)(C)CC4)O[C@@H](C)[C@H](C)[C@@H]3O | AA5 |  | 10–20 µM
OC[C@H]1O[C@@H](n2c(Br)nc3cc(Cl)c(Cl)cc32)[C@H](O)[C@@H]1O | SupT1 |  | 70 µM
OC[C@H]1CC(n2c(Br)nc3cc(Cl)c(Cl)cc32)[C@H](O)[C@@H]1O | HSB-2 | ATP | 25 µM
OCc1ccc(-c2ccc3ncnc(Nc4ccc(N5CCOCC5)cc4)c3c2)o1 | HUH 9B |  | >25 µM
Fc1ccc(Cn2c(-c3ccc(-n4cncn4)cc3)nc3c(F)cc(F)cc32)cc1 | Vero-C-1008 | neutral red / absorbance | >50 µg/mL
Cc1nnsc1C(=O)NNC(=S)Nc1ccc2ccccc2c1 | 143B | MTT | >100 µM
CSc1nsc(-c2ccc(O)cc2)c1C#N | HELA-OHIO |  | 10 µM
CC(C)Nc1nc2cc(Cl)c(Cl)cc2n1[C@H]1O[C@@H](CO)[C@H](O)[C@@H]1O | CBL | neutral red | >98 µM
COc1ccc(N(C)C(=O)[C@H](Cc2ccccc2)NC(=O)c2ccccc2-c2ccccc2C(=O)N(C)[C@@H](Cc2ccccc2)C(=O)N(C)c2ccc(OC)cc2)cc1 | MT-2 | XTT | 100 µM
Clc1ccc2c(NCCCCNc3nc(Nc4ccccc4)nc(N4CCOCC4)n3)ccnc2c1 | LLC-Pk11 |  | 9.9 µM
COC(=O)c1cc(O)cc(OC)c1C(=O)c1c(O)c(Cl)c(C)c(Cl)c1O | Huh7.5.1 | MTT | >50 µM
CC(C)Nc1nc2cc(Cl)c(Cl)cc2n1[C@@H]1O[C@@H](C)[C@@H](O)[C@H]1O | HSB-2 | ATP | 17 µM
C=CCOCc1cn(C2CCON2C(=O)OCc2ccccc2)c(=O)[nH]c1=O | CEM-GFP | MTS | 747 µM
c1ccc(COc2ccccc2-c2ccc3ncnc(Nc4ccc(N5CCOCC5)cc4)c3c2)cc1 | HUH 9B |  | >25 µM
CCc1ccc(Nc2nc(NCCCCNc3ccnc4cc(Cl)ccc34)nc(N3CCOCC3)n2)cc1 | LLC-Pk11 |  | 24.3 µM
CN(C)c1ccc(/C=C/C(=O)c2c(O)cc(/C=C/c3ccc(N(C)C)cc3)oc2=O)cc1 | HCT116 | MTT | >10 µM
Nc1nc2c(ncn2COC(CO)OCP(=O)(O)O)c(=O)[nH]1 | CBMC |  | 103.5 µg/mL
CCOC(=O)c1c(CS(=O)(=O)c2ccccc2)n(C)c2ccc(CN3CCOCC3)cc12 | Huh7.5 | resazurin | >50 µM
Fc1cc(F)c2nc(-c3ccc(-n4cncn4)cc3)n(Cc3cccc(Cl)c3)c2c1 | Vero-C-1008 | neutral red / absorbance | >50 µg/mL
O[C@@H]1[C@H](O)CO[C@H]1n1c(NC2CC2)nc2cc(Cl)c(Cl)cc21 | MOLT-3 | ATP | >100 µM
COc1ccc(CSC2NN=C(c3sc(C)nc3C)N2C23CC4CC(CC(C4)C2)C3)cc1 | 143B | MTT | >100 µM
CC(C)Nc1nc2cc(Cl)c(Cl)cc2n1[C@H]1O[C@H](C)[C@H](O)[C@@H]1O | HSB-2 | ATP | 68 µM
O=C(O)CC1CC(=O)Oc2c1ccc(O)c2O | HOS |  | 54 µM
CSc1nsc(-c2ccc(OC(C)(C)C)cc2)c1C#N | HELA-OHIO |  | 40 µM
O=C1C[C@H](Cc2cccs2)N1C(=O)NCc1ccc(C(F)(F)F)cc1 | COS-7 | MTT | >16 µM
O=C(/C=C/c1ccc(O)c(O)c1)O[C@H]1[C@H](O)C[C@](O)(C(=O)O)C[C@H]1OC(=O)/C=C/c1ccc(O)c(O)c1 | Hep2.2.15 | MTT | >400 µg/mL
O=C1C[C@H](Cc2nccs2)N1C(=O)NCc1ccc([N+](=O)[O-])cc1 | COS-7 | MTT | >29 µM
CN(C(=O)[C@H](Cc1ccccc1)NC(=O)CNC(=O)c1ccccc1)c1ccc(F)cc1 | TZM-gfp | XTT | >50 µM
O=C1C[C@H](Cc2nccs2)N1C(=O)NCc1ccc(C(F)(F)F)cc1 | COS-7 | MTT | >116 µM
COc1ccc(Br)cc1/C=C/C(=O)c1c(O)cc(/C=C/c2ccc(N(C)C)cc2)oc1=O | HCT116 | MTT | >10 µM
Nc1nc(N)c2ncn(CCOCP(=O)(O)O)c2n1 | CBMC |  | 20.17 µg/mL
CCOC(=O)CC(=O)NCCc1ccc(OC)c(OC)c1 | BJ |  | <7.5 µM
Nc1nc2c(ncn2[C@H]2CC[C@@H](CO)O2)c(=O)[nH]1 | Primary duck hepatocytes |  | >200 µM
COc1cccc(Cn2c(-c3ccc(-n4cncn4)cc3)nc3c(F)cc(F)cc32)c1 | Vero-C-1008 | neutral red / absorbance | >50 µg/mL
Cc1nc(C)c(-c2n[nH]c(=S)n2C23CC4CC(CC(C4)C2)C3)s1 | KBALB | MTT | >100 µM
CCOC(=O)c1cc2ccccc2oc1=O | HTLV-I-bearing MT-4 | MTT | 439.9 µg/mL
N=c1nc(N)c2ncn([C@@H]3O[C@H](CO)[C@@H](O)[C@H]3O)c2c(N)n1 | HFF (dividing cells) |  | >100 µM
CCOC(=O)CCCCCOc1cccc(CN(C(=O)c2ccc(-c3cc(C(F)(F)F)cc(C(F)(F)F)c3)cc2)C(C)C)c1 | BJ |  | >20 µM
Cc1ccc(N(C)C(=O)[C@H](Cc2ccccc2)NC(=O)Cn2cc(C)c(=O)[nH]c2=O)cc1 | TZM-gfp | XTT | >50 µM
Clc1ccc(Nc2nnc(NCc3ccccc3)nn2)cc1 | Mammalian cells |  | 29 µM
COC(=O)c1cc(O)cc(OC)c1C(=O)c1c(O)cc(C)cc1O | Huh7.5.1 | MTT | >50 µM
C=CCOc1c(O)ccc2c1OC[C@]1(O)Cc3cc4c(cc3C21)OC(C)(C)O4 | MOLT-4 | MTT | 51.4 µM
CN(C(=O)[C@H](Cc1cc(F)cc(F)c1)NC(=O)c1ccc(F)c(C(=O)N[C@@H](Cc2cc(F)cc(F)c2)C(=O)N(C)c2ccc3snnc3c2)c1)c1ccc2snnc2c1 | MT-2 | XTT | 100 µM
CCNC(=O)c1ccc2ncnc(Nc3ccc(N4CCOCC4)cc3)c2c1 | HUH 9B |  | >25 µM
CCOC(=O)CCCCCOc1cccc(C=O)c1 | RAJI |  | >20 µM
COc1ccc(N(C)C(=O)[C@H](Cc2ccccc2)NC(=O)NS(=O)(=O)N[C@@H](Cc2ccc(F)cc2)C(=O)N(C)C)cc1 | MT-2 | XTT | 100 µM
O=C1O[C@H]([C@@H](O)CO)C(O)=C1O | VB |  | >150 µg/mL
C#CCOCc1cn(C2CCON2C(=O)OCc2ccccc2)c(=O)[nH]c1=O | CEM-GFP | MTS | 1053 µM
Cc1ccc2occ(C=O)c(=O)c2c1 | HTLV-I-bearing MT-4 | MTT | 39.8 µg/mL
FC(F)(F)Oc1ccc2ncnc(Nc3ccc(N4CCOCC4)cc3)c2c1 | HUH 9B |  | >25 µM
O[C@@H]1[C@H](O)[C@H](O)CO[C@H]1n1c(Br)nc2cc(Cl)c(Cl)cc21 | CBL |  | 111.8 µM
COc1ccc(N(C)C(=O)[C@H](Cc2cc(F)cc(F)c2)NC(=O)CN2c3ccccc3N(CC(=O)N[C@@H](Cc3cc(F)cc(F)c3)C(=O)N(C)c3ccc(OC)cc3)S2(=O)=O)cc1 | MT-2 | XTT | 100 µM
NCCOP(=O)(O)OP(=O)(O)OC[C@@H]1CC[C@H](n2ccc(N)nc2=O)O1 | ATH8 |  | >100 µM
Nc1nc(Cl)c2ncn(CCCO)c2n1 | U-937 |  | >100 µM
CSc1nsc(-c2ccccc2)c1C#N | HELA-OHIO |  | 80 µM
COC(=O)C1=C2Nc3ccccc3[C@@]23CCN2C[C@]4(C[C@@H]5C[C@]67CC(=O)O[C@H]6CCC6NC[C@@]8(c9cccc(OC)c9N(C4)[C@@]58O)[C@@H]67)[C@@H]4OCC[C@]4(C1)[C@H]23 | HL-60 | absorbance | 8 µM
Nc1nc2c(ncn2COCCO)c(=O)[nH]1 | CBMC |  | >200 µg/mL
Cc1cn(CC(=O)N[C@@H](C(=O)N(C)c2ccccc2)c2ccccc2)c(=O)[nH]c1=O | TZM-gfp | XTT | >50 µM
Cc1cccc(Cn2c(-c3ccc(-n4cncn4)cc3)nc3c(F)cc(F)cc32)c1 | Vero-C-1008 | neutral red / absorbance | >50 µg/mL

12 of the rows above, restated:

SMILES | cell line | read by | result
Cn1nnc(C[C@H]2CC(=O)N2C(=O)NCc2ccc(C(F)(F)F)cc2)n1 | COS-7 | MTT | >195 µM
Cc1cc(N2CCOCC2)ccc1Nc1ncnc2ccc(-c3cccs3)cc12 | HUH 9B |  | 10–25 µM
COc1ccc(N(C)C(=O)[C@H](Cc2ccccc2)NC(=O)c2ccccc2-c2ccccc2C(=O)N(C)[C@@H](Cc2ccccc2)C(=O)N(C)c2ccc(OC)cc2)cc1 | MT-2 | XTT | 100 µM
COC(=O)C1=C2Nc3ccccc3[C@@]23CCN2C[C@]4(C[C@@H]5C[C@]67CC(=O)O[C@H]6CCC6NC[C@@]8(c9cccc(OC)c9N(C4)[C@@]58O)[C@@H]67)[C@@H]4OCC[C@]4(C1)[C@H]23 | HL-60 | absorbance | 8 µM
CC1(C)C2CC=C3C(CC[C@@]4(C)C5C[C@](C)(C(=O)O)CC[C@]5(C)CC[C@]34C)[C@@]2(C)CCC1(O)O | A2058 |  | 16.4 µM
CCOC(=O)c1c(CS(=O)(=O)c2ccccc2)n(C)c2ccc(CN3CCCC3)cc12 | Huh7.5 | resazurin | >50 µM
c1ccc(COc2ccccc2-c2ccc3ncnc(Nc4ccc(N5CCOCC5)cc4)c3c2)cc1 | HUH 9B |  | >25 µM
CCOC(=O)c1c(CS(=O)(=O)c2ccccc2)n(C)c2ccc(CN3CCN(C)CC3)cc12 | Huh7.5 | resazurin | >50 µM
Clc1ccc(Nc2nnc(NCCc3ccccc3)nn2)cc1 | Mammalian cells |  | 29 µM
NCCOP(=O)(O)OP(=O)(O)OC[C@@H]1CC[C@H](n2ccc(N)nc2=O)O1 | ATH8 |  | >100 µM
CC(C)Nc1nc2cc(Cl)c(Cl)cc2n1[C@@H]1O[C@@H](C)[C@@H](O)[C@H]1O | HSB-2 | ATP | 17 µM
O=C(O)CC1CC(=O)Oc2c1ccc(O)c2O | HOS |  | 54 µM